PubChem BioAssay AID504761 | Drosophila RNAi Screening Center | 2011

Assay: 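Insect host genes that dengue virus relies on to spread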 (primary screen)
Cell system: D.Mel-2 cells from Drosophila
Reagents: long dsRNA against Drosophila genes
Treatment: infection with dengue virus type 2; dose and infection time not stated
Detection: 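Cells stained for dengue envelope protein and imaged; percent of infected cells per well on duplicate plates, ranked by infection, with stained nuclei counted for cell number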
Scale: infection score: higher = more virus-infected cells; cell count: higher = more cells in the well
Active means: 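Low infection ranks in the two replicates (chance level up to 0.065) followed by a retest with a 1.5-fold or larger significant decrease, p below 0.05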
Calls: active = confirmed: knock-down lowers infection; inactive = not picked or not confirmed
In all, the deposit lists about 22,000 reagents; shown is a random part of those that have a named target and a result. Of all reagents, 116 (0.52%) got an active call. 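Calls depend on retest data that are not deposited; infection was ranked per plate without normalising between plates; the unit of the infection score is not given.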 Raw values vary from plate to plate and are shown uncorrected. Names joined by + are all predicted targets of the reagent. Not given: the amount of reagent, the time to read-out.

gene | PubChem SID | infection score, replicate 1 | infection score, replicate 2 | cell count, replicate 1 | cell count, replicate 2 | outcome
mtg (mind the gap) | SID104196048 | 5.46 | 5.74 | 6441 | 6536 | inactive
mtg (mind the gap) | SID104203334 | 9.96 | 5.95 | 6629 | 6889 | inactive
Gr97a (Gustatory receptor 97a) | SID104193594 | 1.76 | 1.5 | 6093 | 6149 | inactive
brv1 (brivido-1) | SID104190868 | 2.13 | 7.62 | 5866 | 5994 | inactive
CG6937 | SID104195932 | – | – | 334 | 374 | inactive
CG6937 | SID104202855 | 11.9 | 4.33 | 6282 | 6231 | inactive
CG33203 | SID104194668 | 4.05 | 4.27 | 6971 | 6483 | inactive
CG33203 | SID104194669 | 2.93 | 18.3 | 6147 | 5542 | inactive
CG33203 | SID104202732 | 4.04 | 11.1 | 6212 | 4234 | inactive
CG9588 | SID104196296 | 0.8 | 4.91 | 6253 | 6113 | inactive
CG12862 | SID104185994 | 16.2 | 2.25 | 5787 | 6703 | inactive
deltaTry + CG30031 + CG30025 + 1 more | SID104206075 | 4.93 | 6.4 | 6933 | 6802 | inactive
CG14220 | SID104199369 | 1.36 | 0.24 | 3454 | 4517 | inactive
CG14220 | SID104204889 | 7.02 | 4.95 | 3916 | 5531 | inactive
CG34155 | SID104193783 | 5.7 | 3.16 | 6651 | 6036 | inactive
CG6885 | SID104190532 | 3.33 | 0.96 | 6492 | 6754 | inactive
Rab6 | SID104183196 | 6.72 | 7.87 | 6671 | 6454 | inactive
Rab6 | SID104204180 | 18.9 | 2.79 | 6477 | 6906 | inactive
CG31759 | SID104181022 | 1.56 | 2.23 | 6603 | 5873 | inactive
Syt4 (Synaptotagmin 4) | SID104192398 | 3.78 | 4.06 | 6344 | 6582 | inactive
IleRS (Isoleucyl-tRNA synthetase) | SID104191459 | 2.45 | 6.73 | 6370 | 6215 | inactive
CG32507 | SID104200213 | 5.43 | 3.49 | 6893 | 6619 | inactive
Or30a (Odorant receptor 30a) | SID104183177 | 1.6 | 3.57 | 6636 | 5764 | inactive

Not a retest: entries from further up.
gene | PubChem SID | infection score, replicate 1 | infection score, replicate 2 | cell count, replicate 1 | cell count, replicate 2 | outcome
CG33203 | SID104194669 | 2.93 | 18.3 | 6147 | 5542 | inactive
CG33203 | SID104202732 | 4.04 | 11.1 | 6212 | 4234 | inactive
